Laboratory results reported in patent US20060115815A1 (priority 2002, published 2006).
pEC50, pKi: −log10 of the molar value. Read-outs that look alike come from different tables or passages of the source. The structures given here were assigned with low confidence; some may be wrong.

Columns and labels:
[1] = tested on: wild-type HIV-1 strain IIIB; assay: Anti-HIV-1 Cell Culture Assay (EC50), XTT cytopathic effect in MT2 cells; assay type: cell-based
[2] = biological target: recombinant HIV-1 protease (Human immunodeficiency virus type 1 group M subtype B, UniProt P04585); assay: HIV-1 Protease Enzyme Assay (Ki), fluorimetric hexapeptide substrate cleavage; assay type: biochemical; settings: class symbols, Table 10; tested form: TFA

Structure (SMILES) | pEC50 ([1]; read-out: Anti-HIV-1 Cell Culture Activity EC50, MT2 cells, wild-type HIV-1 IIIB, XTT, 5 days) | pEC50 ([1]; class symbols, Table 10, tested form: TFA) | pKi [2]
COc1ccc(S(=O)(=O)N(CC(C)C)C[C@@H](O)[C@H](Cc2ccc(OCP(=O)(Oc3ccccc3)Oc3ccccc3)cc2)NC(=O)O[C@H]2CO[C@H]3OCC[C@H]32)cc1 [drawing 651 R1=OPh R2=OPh] | 8.64 |  | 
CCOC(=O)[C@H](C)OP(=O)(CCNCc1ccc(C[C@H](NC(=O)O[C@H]2CO[C@H]3OCC[C@H]32)[C@H](O)CN(CC(C)C)S(=O)(=O)c2ccc(OC)cc2)cc1)Oc1ccccc1OCC (stereo partly drawn) |  | 6.30 to 7.30 | 10.00 to 11.00
